Pooled drug test results. Numbers come from NIAID ChemDB, via PubChem.

Shared fields: tests in culture; organism: HIV-1

Blank or dashed fields: not listed here.

smiles,cells,measure,strain or isolate,method,changes,value
O=C1Nc2ccc(Cl)cc2S(=O)(=O)c2cn(Cc3c(F)cccc3F)cc21,MT-4,EC50,IIIB,cytopathic effect / MTT,,40 µM
CC(C)(C)NC(=O)[C@@H]1CN(Cc2cccnc2)CCN1C[C@@H](O)C[C@@H](Cc1ccccc1)C(=O)N[C@H]1c2ccccc2C[C@H]1O,PBMC,EC90,BR60 (PR L10I K20R M36I/V P63L/S L90M),p24,PR-L10I K20R M36I/V P63L/S L90M,0.02 µM
CC(C)(C)NC(=O)[C@@H]1C[C@@H]2CCCC[C@@H]2CN1C[C@@H](O)[C@H](Cc1ccccc1)NC(=O)[C@H](CC(N)=O)NC(=O)c1ccc2ccccc2n1,PBMC,EC50,LAI Laboratory isolate,p24,,0.011 µM
Nc1ccn([C@H]2CC[C@@H](CO)O2)c(=O)n1,MT-4,EC50,NL4-3,,+Vpx,0.308 µM
CC(C)Nc1cccnc1N1CCN(C(=O)c2cc3cc(NS(C)(=O)=O)ccc3[nH]2)CC1,MT-4,EC50,AJ-05.93 (HXB2(RT-L74V)),cytopathic effect,RT-L74V,0.144 µM
Cc1ccnc2c1NC(=O)c1cccnc1N2C1CC1,HT4 + HT4 LacZ-1,EC50,HXB2,plaque count,RT-M41L T215Y,0.05 µM
Cc1ccnc2c1NC(=O)c1cccnc1N2C1CC1,CEM,EC50,IIIB-TIBO(0.5)(RT-L100I),syncytia,RT-L100I,0.05 µg/mL
CCOC(=O)c1c[nH]cc1S(=O)(=O)c1cc(Cl)ccc1N,C8166,EC50,Clinical isolate,cytopathic effect / MTT,RT-K103N,≥30 µM
O=C1CN=C(c2ccc[nH]2)c2cc(Cl)ccc2N1,PBL,EC50,IIIB/LAI,p24,,2.6 µM
Cc1nnc(C(=O)NC(C)(C)c2nc(C(=O)NCc3ccc(F)cc3)c(O)c(=O)n2C)o1,Jurkat cells,EC50,NL4-3,,,0.003 µM
Cc1c(O)cccc1C(=O)N[C@@H](CSc1ccccc1)[C@H](O)CN1C[C@H]2CCCC[C@H]2C[C@H]1C(=O)NC(C)(C)C,PBMC,EC50,Clinical isolate,p24,PR-L10I V11I T12E I15V L19I R41K M46L L63 A71T V82A L90M,0.09 µM
Cc1cc(C)cc([C@]23SCCN2C(=O)c2ccccc23)c1,Macrophage + Monocytes/macrophages,EC50,D79,p24 / ELISA,,0.016 µM
Nc1nc(NC2CC2)c2ncn([C@H]3C=C[C@@H](CO)C3)c2n1,Jurkat cells,EC50,NL4-3,,+Vpx,0.059 µM
CCCN(C)C(=O)Oc1nsnc1-c1c(Cl)ccc(O)c1Cl,MT-4,EC50,IIIB,cytopathic effect / MTT,,0.16 µM
Cc1cn([C@H]2C[C@H](N=[N+]=[N-])[C@@H](CO)O2)c(=O)[nH]c1=O,U-937,EC50,RF,p24 / RT activity,,0.029 µM
Nc1ncnc2c1ncn2CCOCP(=O)(O)O,CEM,EC50,IIIB-Nevirapine(1.0)(RT-Y181C),syncytia,RT-Y181C,13 µM
CCCN(C)C(=O)Oc1nsnc1-c1c(Cl)ccc(N)c1Cl,MT-4,EC50,clinical isolate A018A AZT-sensitive,p24,,0.0058 µM
CC(C)(C)NC(=O)[C@@H]1CN(Cc2cccnc2)CCN1C[C@@H](O)C[C@@H](Cc1ccccc1)C(=O)N[C@H]1c2ccccc2C[C@H]1O,PBMC,EC50,Clinical isolate,p24,PR-L10I I15V E35D N37E K45R I54V L63P A71V V82T L90M I93L C95F,0.49 µM
CC(C)CN(C[C@@H](O)[C@H](Cc1ccccc1)NC(=O)[C@H](CC(N)=O)NC(=O)c1ccc2ccccc2n1)C(=O)NC(C)(C)C,MT-4,EC95,NL4-3,p24,PR-L10R M46I L63P 184V,1.5 µM
O=C1Nc2ccc(Cl)cc2S(=O)(=O)c2cn(Cc3ccc(-c4ccccc4)cc3)cc21,MT-4,EC50,IIIB,cytopathic effect / MTT,,>4.6 µM
COC(=O)N[C@H](C(=O)N[C@@H](Cc1ccccc1)[C@@H](O)CN(Cc1ccc(-c2ccccn2)cc1)NC(=O)[C@@H](NC(=O)OC)C(C)(C)C)C(C)(C)C,MT-2,EC50,BRU,RT activity,,0.00528 µM
CC(=O)c1ccc(C)cc1NC(C(N)=O)c1c(Cl)cccc1Cl,MT-4,EC50,clinical isolate A012B AZT-sensitive,p24,,0.0068 µM
Cc1cn([C@@H]2O[C@H](CO[Si](C)(C)C(C)(C)C)C3(OS(=O)(=O)C=C3N)[C@H]2O[Si](C)(C)C(C)(C)C)c(=O)n(C)c1=O,CEM,EC50,IIIB,syncytia,,0.03 µg/mL
Nc1nc(=O)n([C@@H]2CS[C@H](CO)O2)cc1F,TZM-gfp,EC50,NL4-3,GFP,A114S/A502V,0.39 µM
Cc1c(O)cccc1C(=O)N[C@@H](CSc1ccccc1)[C@H](O)CN1C[C@H]2CCCC[C@H]2C[C@H]1C(=O)NC(C)(C)C,CEM + CEM-SS,EC50,RF,RT activity,,0.0179 µM
CC(C)CN(C[C@@H](O)[C@H](Cc1ccccc1)NC(=O)O[C@H]1CCOC1)S(=O)(=O)c1ccc(N)cc1,PBMC,EC50,Clinical isolate,p24,PR-L10R N37D M46I I62V L63P A71V G73S V77I V82T L90M I93L,0.15 µM
CC(C)(C)NC(=O)[C@@H]1CN(Cc2cccnc2)CCN1C[C@@H](O)C[C@@H](Cc1ccccc1)C(=O)N[C@H]1c2ccccc2C[C@H]1O,PBMC,EC50,006,p24,,0.005 µM
CCOC(=O)c1cn(CC=C(C)C)cc1S(=O)(=O)c1cc(Cl)ccc1N,MT-4,EC50,IIIB,cytopathic effect / MTT,,10 µM
Nc1ccn([C@H]2CC[C@@H](CO)O2)c(=O)n1,MT-4,EC50,LZ-05.95,cytopathic effect,,1.8 µM
Cc1ccnc2c1NC(=O)c1cccnc1N2C1CC1,MDM,EC50,NL4-3,,,0.274 µM
Nc1ccn([C@H]2CC[C@@H](CO)O2)c(=O)n1,CEM,EC50,IIIB-Nevirapine(0.1)(RT-Y181C),syncytia,RT-Y181C,0.006 µM
CC1=C(C(=O)Nc2ccc(Cl)c(C(=O)OC(C)C)c2)SCCO1,C8166,EC50,RF,,,2.1 µM
Cc1cn([C@H]2C=C[C@@H](CO)O2)c(=O)[nH]c1=O,MT-4,EC50,AJ-05.93 (HXB2(RT-L74V)),cytopathic effect,RT-L74V,15.6 µM
O=C1Nc2ccc(Cl)cc2S(=O)(=O)c2cn(CC=Cc3ccccc3)cc21,MT-4,EC50,IIIB,cytopathic effect / MTT,,>200 µM
CC[C@H](C)[C@H](NC(=O)c1ccccc1SSc1ccccc1C(=O)N[C@H](C(=O)O)[C@@H](C)CC)C(=O)O,PBMC,EC50,LAV-Bru,p24 / RT activity,,7 µM
Cc1cn([C@H]2C[C@H](N=[N+]=[N-])[C@@H](CO)O2)c(=O)[nH]c1=O,PBMC,EC50,Primary clinical isolate Rome,p24,,<3.7 µM
Cc1ccnc2c1NC(=O)c1cccnc1N2C1CC1,PBMC,EC50,D79,p24 / ELISA,,0.051 µM
O=C1N(Cc2ccc(CO)cc2)[C@H](Cc2ccccc2)[C@H](O)[C@@H](O)[C@@H](Cc2ccccc2)N1Cc1ccc(CO)cc1,MT-4,EC95,NL4-3,p24,PR-V82T,0.1 µM
O=C1Nc2ccc(Cl)cc2S(=O)(=O)c2cn(Cc3cccc4ccccc34)cc21,MT-4,EC50,IIIB,cytopathic effect / MTT,,22 µM

2 of the rows above, restated:

smiles	cells	measure	strain or isolate	method	changes	value
Cc1cn([C@H]2C[C@H](N=[N+]=[N-])[C@@H](CO)O2)c(=O)[nH]c1=O	U-937	EC50	RF	p24 / RT activity		0.029 µM
Cc1cn([C@@H]2O[C@H](CO[Si](C)(C)C(C)(C)C)C3(OS(=O)(=O)C=C3N)[C@H]2O[Si](C)(C)C(C)(C)C)c(=O)n(C)c1=O	CEM	EC50	IIIB	syncytia		0.03 µg/mL

ECn: concentration that inhibits the pathogen or its effect by n%. Rows are shuffled and stem from different studies.